Compound potency records, mixed from different reports. Data source: NIAID ChemDB in PubChem.

Shared fields: tests in culture; species: HIV-1; measure: EC50

ECn: concentration that inhibits the pathogen or its effect by n%. An empty or dashed field is not shown. a–b is a range or a potency band. Neighbouring rows are from separate reports.

structure	strain	cells	mutations	conditions	method	value
CC(=O)Nc1nc(-c2cccc(NC(=O)[C@@H](N)Cc3cnc[nH]3)c2)cs1	NL4-3				luciferase	0.41 µM
COc1ncc(OC)c2c(C(=O)C(=O)N3CCN(C(=O)c4ccccc4)CC3)c[nH]c12		HeLa			luciferase	0.0002–1 µM
O=c1ccn([C@H]2CCC[C@H]2CO)c(=O)[nH]1		CEM			cytopathic effect	>100 µg/mL
CC(=O)Oc1ccc(CCC(=O)CCc2ccc(NC(=O)c3ccccc3)cc2)cc1OC(C)=O	BaL	TZM-bl			luciferase	4.85 µM
O=C(NCc1ccc(F)cc1F)c1cn2c(c(O)c1=O)C(=O)N(CCCCCCO)CC2		HEK 293	G118R		luciferase	0.0677 µM
CC(=O)Oc1ccc(/C=C/C(=O)CCc2ccc(NC(=O)c3ccc([N+](=O)[O-])cc3)cc2)cc1OC(C)=O	BaL	TZM-bl			luciferase	16.25 µM
O=C(NCc1ccc(F)cc1F)c1cn2cc[nH]c(=O)c2c(O)c1=O		HEK 293	G118R		luciferase	0.3723 µM
C[C@H](CS)C(=O)N1CCC[C@@H]1c1nc2ncccc2[nH]1	IIIB	MT-4			MTT	0.24 µg/mL
CCCCCCCCC(=O)CCCCC(=O)O		CEM			cytopathic effect	>10 µg/mL
CC(C)CN(C[C@@H](O)[C@H](Cc1ccccc1)NC(=O)O[C@H]1CO[C@@H]2OCC[C@@H]21)S(=O)(=O)c1ccc2c(C=NCCO)c(O)[nH]c2c1					MTT	>0.4 µM
CC(C)C1=C2[C@H]3CC[C@@H]4[C@@]5(C)CC[C@H](OC(=O)[C@H]6C[C@@H](C(=O)O)C6(C)C)C(C)(C)[C@@H]5CC[C@@]4(C)[C@]3(C)CC[C@@]2([C@@H](O)CNC(=O)C(C)(C)NC(=O)c2ccc(F)cc2)CC1=O	92HT599	MT-2			p24 / ELISA	<1 µM
COc1cnc(N(C)c2ccccn2)c2[nH]cc(C(=O)C(=O)N3CCN(C(=O)c4ccccc4)CC3)c12		HeLa			luciferase	<1 µM
Cc1ccc(OCCOCn2cc(Br)c(=O)[nH]c2=O)cc1		CEM + CEM-SS			cytopathic effect	69.1 µM
CC(C)C1=C2[C@H]3CC[C@@H]4[C@@]5(C)CC[C@H](OC(=O)[C@H]6C[C@@H](C(=O)O)C6(C)C)C(C)(C)[C@@H]5CC[C@@]4(C)[C@]3(C)CC[C@@]2([C@@H](O)CNC(=O)C(C)(C)NC(=O)c2cncnc2)CC1=O	92HT599	MT-2			p24 / ELISA	<1 µM
O=C(NCc1ccc(F)cc1F)c1cn2ccn(CCCCCCO)c(=O)c2c(O)c1=O		HEK 293	G118R		luciferase	0.0692 µM
Nc1ncnc2c1ncn2COCCOP(=O)(O)O[C@@H]1C[C@@H](COP(=O)(O)O[C@@H]2C[C@@H](COP(=O)(O)O[C@@H]3C[C@@H](CO)O[C@H]3n3cnc4c(NCc5ccccc5)ncnc43)O[C@H]2n2cnc3c(N)ncnc32)O[C@H]1n1cnc2c(N)ncnc21		SupT1 + Sup-T1			RT activity	<100 µM
COc1cnc(C(N)=O)c2[nH]cc(C(=O)C(=O)N3CCN(C(=O)c4ccccc4)[C@H](C)C3)c12		HeLa			luciferase	≤0.0002 µM
CCN(CC)CCN1C(=O)C2C3C=CC(C3=C(c3ccccc3)c3ccccc3)C2C1=O	IIIB	MT-4			cytopathic effect / MTT	>27 µM
Cc1ncn(-c2ncc(F)c3c(C(=O)C(=O)N4CCN(C(=O)c5ccccc5)[C@H](C)C4)c[nH]c23)n1		HeLa			luciferase	≤0.0002 µM
O=c1ccn([C@H]2CCC[C@@H]2CO)c(=O)[nH]1		CEM			cytopathic effect	>100 µg/mL
Cc1ccc(OCCOCn2ccc(=O)[nH]c2=O)cc1		CEM + CEM-SS			cytopathic effect	16.1 µM
O=C(O)CCCCCCCCCCCn1cnnc1	RF	CEM			cytopathic effect	<10 µg/mL
CCOP(=O)(OCC)C(F)(F)C[C@H]1CO[C@@H](n2cnc3c(Cl)nc(N)nc32)[C@H]1F					cytopathic effect	72.4 µM
C[C@H](CS)C(=O)N1CCC[C@@H]1c1nc2ncnc(N)c2[nH]1	IIIB	MT-4			MTT	>24.7 µg/mL
COc1cnc(-n2ccc(COC(=O)CC(C)(C)C(=O)O)n2)c2[nH]cc(C(=O)C(=O)N3CCN(C(=O)c4ccccc4)CC3)c12		HeLa			luciferase	<1 µM
C[C@H](CSCC(=O)O)C(=O)N1CCC[C@@H]1C(=O)O	IIIB	MT-4			MTT	>125 µg/mL
OCC1OC(SC2C(OCc3ccccc3)OC(CO)C(O)C2O)C(O)C(O)C1O		CEM MT-2 + CEM			XTT	>100 µg/mL
Nc1ncnc2c1ncn2[C@@H]1OC[C@H](CC(F)(F)P(=O)(O)O)[C@@H]1F					cytopathic effect	>100 µM
CC1=C[C@@H](OCP(=O)(O)O)C[C@H]1n1cnc2c(N)ncnc21		MT-4			XTT	85 µM
Nc1c(C(=O)NCc2ccc(F)cc2F)c(=O)n(O)c2ncc(CCCCCO)cc12		HOS	AGC (GGGAGC)		luciferase	<0.003 µM
[N-]=[N+]=NCCCCCCCCCCC(=O)O		CEM			cytopathic effect	>10 µg/mL
Nc1c(C(=O)NCc2ccc(F)cc2F)c(=O)n(O)c2ncc(CCS(=O)(=O)c3ccccc3)cc12		HOS			luciferase	<0.004 µM
CC(=O)OCC1OC(SC2C(OCc3ccccc3)OC(COC(C)=O)C(OC(C)=O)C2OC(C)=O)C(OC(C)=O)C(OC(C)=O)C1OC(C)=O		CEM MT-2 + CEM			XTT	>100 µg/mL
Nc1ncnc2c1ncn2[C@H]1C=C[C@@H](OCP(=O)(O)O)C1(F)F		MT-4			cytopathic effect	19 µM
C[C@H](CS)C(=O)N1CCC[C@@H]1c1nc2c([N+](=O)[O-])cccc2[nH]1	IIIB	MT-4			MTT	>11.27 µg/mL
CC(C)CN(C[C@@H](O)[C@H](Cc1ccccc1)NC(=O)O[C@H]1CO[C@H]2OCC[C@H]21)S(=O)(=O)c1ccc2[nH]c(O)c(C=NCc3nc4ccccc4[nH]3)c2c1		MT-4	L10 L24 M36 I54 L63 A71 V82 I84		MTT	>0.4 µM
CC(C)C1=C2[C@H]3CC[C@@H]4[C@@]5(C)CC[C@H](OC(=O)[C@H]6C[C@@H](C(=O)O)C6(C)C)C(C)(C)[C@@H]5CC[C@@]4(C)[C@]3(C)CC[C@@]2(CC(=O)N(CCN(C)C)Cc2cc(C(C)C)n[nH]2)CC1=O	92HT599	MT-2			p24 / ELISA	<1 µM
Nc1ncnc2c1ncn2[C@@H]1O[C@H](COC2(c3ccccc3)c3ccccc3Oc3ccccc32)[C@@H](OC2(c3ccccc3)c3ccccc3Oc3ccccc32)[C@H]1OC1CCCCO1	IIIB	U-937/HIV-1(IIIB) + U-937		chronic infection	RT activity	1.5 µM
CC(=O)Nc1nc(-c2cccc(NC(=O)[C@@H](N)CCCCN)c2)cs1	NL4-3				luciferase	0.63 µM
O=C(/C=C/c1ccc(O)c(O)c1)CCc1ccc(NC(=O)c2ccccc2)cc1	BaL	TZM-bl			luciferase	>50 µM
CCOP(=O)(OCC)C(F)(F)C[C@H]1CO[C@@H](n2cnc3c(N)ncnc32)[C@H]1F					cytopathic effect	>100 µM
O=C(O)CCCCCCCCCCCCn1nccn1		CEM			cytopathic effect	>1 µg/mL
O=C(NCc1ccc(F)cc1F)c1cn2c(c(O)c1=O)C(=O)NCC2		HEK 293	G118R		luciferase	0.2758 µM
CC1(C)Cc2c(Br)c(Br)c(Br)c(O)c2O1		MT-4			cytopathic effect / MTT	>60 µM
O=C(NCc1ccc(F)cc1F)c1cn2c(c(O)c1=O)C(=O)N(CCCCCO)CC2		HEK 293	G118R		luciferase	0.2427 µM
O=C(CCc1ccc(NC(=O)C2CCCCC2)cc1)CCc1ccc(O)c(O)c1	BaL	TZM-bl			luciferase	18.34 µM
Nc1nc2c(ncn2[C@H]2C=C[C@@H](OCP(=O)(O)O)C2(F)F)c(=O)[nH]1		MT-4			cytopathic effect	32 µM
O=C1C2C3C=CC(C3=C(c3ccccc3)c3ccccc3)C2C(=O)N1CCN1CCCCC1	IIIB	MT-4			cytopathic effect / MTT	>38 µM
O=c1[nH]c(=O)n(C[C@H]2CCC[C@H]2CO)cc1I		CEM			cytopathic effect	>100 µg/mL
CC(C)C1=C2[C@H]3CC[C@@H]4[C@@]5(C)CC[C@H](OC(=O)[C@H]6C[C@@H](C(=O)O)C6(C)C)C(C)(C)[C@@H]5CC[C@@]4(C)[C@]3(C)CC[C@@]2(CCNCC(CN)NC(=O)c2ccc(Cl)cc2)CC1=O	92HT599	MT-2			p24 / ELISA	<1 µM
CCOP(=O)(OCC)C(F)(F)C[C@H]1CO[C@@H](n2cnc3c(N)nc(F)nc32)[C@H]1F					cytopathic effect	79 µM
CC(C)=CCC/C(C)=C/Cn1ccn2cc(C(=O)NCc3ccc(F)cc3F)c(=O)c(O)c2c1=O		HEK 293	S230N		luciferase	0.2017 µM
CC(=O)OCC1OC(SC2C(OC(C)=O)OC(COC(C)=O)C(OC(C)=O)C2OC(C)=O)C(OC(C)=O)C(OC(C)=O)C1OC(C)=O		CEM			XTT	51.4 µg/mL
Cc1ccc(OCCOCn2c(C)c(C)c(=O)[nH]c2=O)cc1		CEM + CEM-SS			cytopathic effect	76.8 µM
CN(C)CCOc1c(Br)c(Br)c(Br)c2c1OC(C)(C)C2		MT-4			cytopathic effect / MTT	>12.4 µM
Cc1cn([C@@H]2OC[C@H](CC(F)(F)P(=O)(O)O)[C@@H]2F)c(=O)[nH]c1=O					cytopathic effect	>100 µM
OCC1OC(SC2C(O)C(O)OC(CO)C2O)C(O)C(O)C1O		CEM MT-2 + CEM			XTT	>100 µg/mL
CC(C)C1=C2[C@H]3CC[C@@H]4[C@@]5(C)CC[C@H](OC(=O)[C@H]6C[C@@H](C(=O)O)C6(C)C)C(C)(C)[C@@H]5CC[C@@]4(C)[C@]3(C)CC[C@@]2(CCNCc2ccc(O[C@H]3CCOC3)cc2)CC1=O	92HT599	MT-2			p24 / ELISA	<1 µM
Cc1c(Br)c(=O)[nH]c(=O)n1COCCOc1ccc(Cl)cc1		CEM + CEM-SS			cytopathic effect	7.2 µM
Nc1nc2c(ncn2[C@@H]2OC[C@H](CC(F)(F)P(=O)(O)O)[C@@H]2F)c(=O)[nH]1					cytopathic effect	66.3 µM
Cc1cn(COCCOc2ccc(Cl)cc2)c(=O)[nH]c1=O		CEM + CEM-SS			cytopathic effect	50.9 µM
CC(C)CN(C[C@@H](O)[C@H](Cc1ccccc1)NC(=O)O[C@H]1CO[C@H]2OCC[C@H]21)S(=O)(=O)c1ccc2nc(NC3CCN(C4CCCC4)CC3)sc2c1	T13632	MT-4	V32I I50V L76V V82I		reporter gene	42 nM
CC(=O)OCCCc1cnc2c(c1)c(N)c(C(=O)NCc1ccc(F)cc1F)c(=O)n2O		HOS	+G insertion (GGGGAGT)		luciferase	<0.001 µM
Nc1ncnc2c1ncn2COCCOP(=O)([O-])O[C@@H]1[C@H](O)[C@@H](COP(=O)([O-])O[C@@H]2[C@H](O)[C@@H](COP(=O)([O-])O[C@@H]3[C@H](O)[C@@H](CO)O[C@H]3n3cnc4c(N)ncnc43)O[C@H]2n2cnc3c(N)ncnc32)O[C@H]1n1cnc2c(N)ncnc21		SupT1 + Sup-T1			p24	>100 µM
Nc1c(C(=O)NCc2ccc(F)cc2F)c(=O)n(O)c2ncc(CCS(=O)(=O)CCN3CCOCC3)cc12		HOS	AGC (GGGAGC)		luciferase	0.0854 µM
CNC(=O)c1ncn(-c2ncc(OC)c3c(C(=O)C(=O)N4CCN(C(=O)c5ccccc5)CC4)c[nH]c23)n1		HeLa			luciferase	≤0.0002 µM
Cc1ccc(CNCC[C@@]23CC[C@]4(C)[C@H](CC[C@@H]5[C@@]6(C)CC[C@H](OC(=O)[C@H]7C[C@@H](C(=O)O)C7(C)C)C(C)(C)[C@@H]6CC[C@]54C)C2=C(C(C)C)C(=O)C3)cn1	92HT599	MT-2			p24 / ELISA	<1 µM
O=C(/C=C/c1ccc(O)c(O)c1)CCc1ccc(NC(=O)Cc2cccs2)cc1	BaL	TZM-bl			luciferase	>50 µM

For reference, 8 entries again:

structure	strain	cells	mutations	conditions	method	value
CC(C)CN(C[C@@H](O)[C@H](Cc1ccccc1)NC(=O)O[C@H]1CO[C@@H]2OCC[C@@H]21)S(=O)(=O)c1ccc2c(C=NCCO)c(O)[nH]c2c1					MTT	>0.4 µM
Nc1ncnc2c1ncn2COCCOP(=O)([O-])O[C@@H]1[C@H](O)[C@@H](COP(=O)([O-])O[C@@H]2[C@H](O)[C@@H](COP(=O)([O-])O[C@@H]3[C@H](O)[C@@H](CO)O[C@H]3n3cnc4c(N)ncnc43)O[C@H]2n2cnc3c(N)ncnc32)O[C@H]1n1cnc2c(N)ncnc21		SupT1 + Sup-T1			p24	>100 µM
O=C(NCc1ccc(F)cc1F)c1cn2cc[nH]c(=O)c2c(O)c1=O		HEK 293	G118R		luciferase	0.3723 µM
Nc1nc2c(ncn2[C@H]2C=C[C@@H](OCP(=O)(O)O)C2(F)F)c(=O)[nH]1		MT-4			cytopathic effect	32 µM
CC(=O)Nc1nc(-c2cccc(NC(=O)[C@@H](N)CCCCN)c2)cs1	NL4-3				luciferase	0.63 µM
O=C(O)CCCCCCCCCCCn1cnnc1	RF	CEM			cytopathic effect	<10 µg/mL
O=C(NCc1ccc(F)cc1F)c1cn2c(c(O)c1=O)C(=O)NCC2		HEK 293	G118R		luciferase	0.2758 µM
O=C(NCc1ccc(F)cc1F)c1cn2c(c(O)c1=O)C(=O)N(CCCCCO)CC2		HEK 293	G118R		luciferase	0.2427 µM